Results: patent US9266904B2, “6-bridged heteroaryldihydropyrimidines for the treatment and prophylaxis of hepatitis B virus infection” (priority 2013, dated 2016)

System: HepDE19 cells
Assay: Cytotoxicity (CCK-8 cell viability) and selectivity index
Format: cell-based, human
Details: CC50 value/EC50 value
Description: HepG2.2.15 and HepDE19 are stably-transfected cell lines containing the HBV genome. Both cell lines are derived from the hepatoblastoma cell line Hep G2 (American Type Culture Collection, ATCC® HB-8065™) by the published procedures described in references: M A Selles et al. Proc. Natl. Acad. Sci. USA 1987, 84, 1005-1009 and H Guo et al. Journal of Virology 2007, 81, 12472-12484, respectively. Both cell lines were maintained in Dulbecco's modified Eagle's medium (DMEM)-F12 medium supplemented with 10% fetal bovine serum, 100 U/mL penicillin, 100 μg/mL streptomycin, and 0.5 mg/mL of G418.
In a cell culture model, apparent antiviral activity of a compound can be the result of host cell death after exposure to the compound. To determine whether the anti-HBV effect of a test compound is due to cytotoxicity, HepDE19 cells were seeded into 96-well plates (5×10^3 cells per well) and treated with compounds as described above for EC50 determination. Five days after treatment, cell viability was measured by addition of 20 μL of CCK-8 reagent. Two hours after incubation at 37° C., the absorbance at wavelengths of 450 nm and 630 nm (OD450 and OD630) was recorded by a plate reader. The concentration results in the death of 50% of the host cells (CC50) of each compound was determined (See Table 5).

| SMILES | Selectivity index (CC50/EC50) |
| --- | --- |
| COC(=O)C1=C(CN2[C@@H]3C[C@@H](CC(=O)O)C[C@H]2C(F)(F)C3)NC(c2nccs2)=N[C@H]1c1ccc(Cl)c(F)c1 (single isomer, unassigned) [Example 113, 2-[(1R,3R,5S)-8-[[(4S)-4-(4-chloro-3-fluoro-phenyl)-5-methoxycarbonyl-2-thiazol-2-yl-1,4-dihydropyrimidin-6-yl]methyl]-6,6-difluoro-8-azabicyclo[3.2.1]octan-3-yl]acetic acid or 2-[(1S,3S,5R)-8-[[(4S)-4-(4-chloro-3-fluoro-phenyl)-5-methoxycarbonyl-2-thiazol-2-yl-1,4-dihydropyrimidin-6-yl]methyl]-6,6-difluoro-8-azabicyclo[3.2.1]octan-3-yl]acetic acid] | 6404 |
| COC(=O)C1=C(CN2[C@H]3COC[C@@H]2C(F)(F)[C@H](CC(=O)O)C3)NC(c2nccs2)=N[C@H]1c1ccc(F)c(F)c1Cl (single isomer, unassigned) [Example 131, 2-[(1R,5R,7S)-9-[[(4R)-4-(2-chloro-3,4-difluoro-phenyl)-5-methoxycarbonyl-2-thiazol-2-yl-1,4-dihydropyrimidin-6-yl]methyl]-6,6-difluoro-3-oxa-9-azabicyclo[3.3.1]nonan-7-yl]acetic acid or 2-[(1S,5S,7R)-9-[[(4R)-4-(2-chloro-3,4-difluoro-phenyl)-5-methoxycarbonyl-2-thiazol-2-yl-1,4-dihydropyrimidin-6-yl]methyl]-6,6-difluoro-3-oxa-9-azabicyclo[3.3.1]nonan-7-yl]acetic acid] | 9346 |
